From the supplement of paper PMC9931576
Human monoclonal antibodies against the spike receptor-binding domain (heavy:light variable regions). IC50 against pseudoviruses bearing the spike of naturally observed variants; lower = stronger; >10 µg/ml means not reached at the top dose. No active / inactive call. The stated detection limit is 0.0005 µg/ml; values near or below 0.001 µg/ml lie at the floor of the assay.

What was measured:
Test in all cases: pseudovirus neutralization IC50; higher = weaker neutralization
[1] = molecular target: SARS-CoV-2 Omicron BA.1 spike pseudovirus
Description: (§1)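 Single-round VSV luciferase pseudovirus mixed with antibody dilutions for 1 h and put on Huh-7 cells for about a day; IC50 from the dose curve.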

[2] = molecular target: SARS-CoV-2 Omicron BA.2 spike pseudovirus
Description: as §1

[3] = molecular target: SARS-CoV-2 Omicron BA.2.75 spike pseudovirus
Description: as §1

[4] = molecular target: SARS-CoV-2 Omicron BA.2.75.2 spike pseudovirus
Description: as §1

[5] = molecular target: SARS-CoV-2 Omicron BA.5 spike pseudovirus
Description: as §1

[6] = molecular target: SARS-CoV-2 Omicron BM.1.1.1 spike pseudovirus
Description: as §1

[7] = molecular target: SARS-CoV-2 Omicron BQ.1.1 spike pseudovirus
Description: as §1

[8] = molecular target: SARS-CoV-2 Omicron BR.2 spike pseudovirus
Description: as §1

[9] = molecular target: SARS-CoV-2 Omicron CA.1 spike pseudovirus
Description: as §1

[10] = molecular target: SARS-CoV-2 Omicron XBB spike pseudovirus
Description: as §1

[11] = molecular target: SARS-CoV-2 early D614G spike pseudovirus
Description: as §1

B1: BD56-819 (protein)
chain 1: EVQLVESGGGLVKPGGSLRLSCAASGFTFSSYTMNWVRQAPGKGLEWVSSISYSSNYIYYADSVKGRFTISRDNAKNSLYLQMNSLRAEDTAVYYCARGRPPLITLIPLEGYDAFDIWGQGTMVTVSS
chain 2: QPVLTQPPSASASLGASVTLTCTLSSGYSNYKVDWYQQRPGKGPRFVMRVGTGGIVGSKGDGIPDRFSVLGSGLTRYLTINNIQEEDESDYHCGADHGSGSNFVYLFGGGTKLTVL
pseudovirus neutralization IC50 [1]: 0.00171 µg/mL
pseudovirus neutralization IC50 [2]: 0.00115 µg/mL
pseudovirus neutralization IC50 [3]: 0.00301 µg/mL
pseudovirus neutralization IC50 [4]: > 10 µg/mL
pseudovirus neutralization IC50 [5]: > 10 µg/mL
pseudovirus neutralization IC50 [6]: > 10 µg/mL
pseudovirus neutralization IC50 [7]: > 10 µg/mL
pseudovirus neutralization IC50 [8]: > 10 µg/mL
pseudovirus neutralization IC50 [9]: > 10 µg/mL
pseudovirus neutralization IC50 [10]: > 10 µg/mL
pseudovirus neutralization IC50 [11]: > 10 µg/mL

B2: BD56-734 (protein)
chain 1: QVQLQESGPGLVKPSETLSLTCTVSGDSISGYYWSWVRQPPGKGLAWIGYIYNGGSTDYNPSLKSRITMSLDTSKNQFSLKLNSVTAADTAVYFCARGSVDGDAFDIWGQGTMVTVSS
chain 2: DIVMTQSPDSLAVSLGERATINCKSSQSVLYSSNNKNYLAWYQQKPGQPPKLLIYWASTRESGVPDRFSGSGSGTDFTLTISSLQAEDVAVYYCQQYYTTPLTFGPGTKVDIK
pseudovirus neutralization IC50 [1]: 0.00116 µg/mL
pseudovirus neutralization IC50 [2]: > 10 µg/mL
pseudovirus neutralization IC50 [3]: > 10 µg/mL
pseudovirus neutralization IC50 [4]: > 10 µg/mL
pseudovirus neutralization IC50 [5]: > 10 µg/mL
pseudovirus neutralization IC50 [6]: > 10 µg/mL
pseudovirus neutralization IC50 [7]: > 10 µg/mL
pseudovirus neutralization IC50 [8]: > 10 µg/mL
pseudovirus neutralization IC50 [9]: > 10 µg/mL
pseudovirus neutralization IC50 [10]: > 10 µg/mL
pseudovirus neutralization IC50 [11]: > 10 µg/mL

B3: BD56-749 (protein)
chain 1: QVQLQESGPGLVKPSETLSLTCTVSGDSISGYYWSWIRQPPGKGLEWIGFIYYSGSTNYNPSLKSRVTILVDTSNNQFSLKLSSVTAADTAVYYCARGQLRGDAFDIWGQGTMVTVSS
chain 2: DIVMTQSPDSLAVSLGERATINCKSSQSVLYSSNNKNYLAWYQQKPGQPPKLLIYWASTRESGVPDRFSGSGSGTDFTLTISSLQAEDVALYYCQQYYSIPLTFGGGTKVEIK
pseudovirus neutralization IC50 [1]: 0.00301 µg/mL
pseudovirus neutralization IC50 [2]: > 10 µg/mL
pseudovirus neutralization IC50 [3]: > 10 µg/mL
pseudovirus neutralization IC50 [4]: > 10 µg/mL
pseudovirus neutralization IC50 [5]: > 10 µg/mL
pseudovirus neutralization IC50 [6]: > 10 µg/mL
pseudovirus neutralization IC50 [7]: > 10 µg/mL
pseudovirus neutralization IC50 [8]: > 10 µg/mL
pseudovirus neutralization IC50 [9]: > 10 µg/mL
pseudovirus neutralization IC50 [10]: > 10 µg/mL
pseudovirus neutralization IC50 [11]: > 10 µg/mL

B4: BD56-798 (protein)
chain 1: QVQLQESGPGLVKPSETLSLTCTVSGGPISSHYWNWIRQPPGKGLEWIGYIYYSGSTNYNPSLKSRVTISVDASKNQVSLKLISVTAADTAVYYCARGGILGDYFDYWGQGTLVTGSS
chain 2: DIVMTQSPDSLAVSLGERATINCKSSQSVLYSSNNENYLAWYQQKPGQSPKLLIYWASTRESGVPDRFSGSGSGTDFTLTISSLQAEDVAVYYCQQYYSPPLTFGGGTKVEIK
pseudovirus neutralization IC50 [1]: 0.0015 µg/mL
pseudovirus neutralization IC50 [2]: > 10 µg/mL
pseudovirus neutralization IC50 [3]: > 10 µg/mL
pseudovirus neutralization IC50 [4]: > 10 µg/mL
pseudovirus neutralization IC50 [5]: > 10 µg/mL
pseudovirus neutralization IC50 [6]: > 10 µg/mL
pseudovirus neutralization IC50 [7]: > 10 µg/mL
pseudovirus neutralization IC50 [8]: > 10 µg/mL
pseudovirus neutralization IC50 [9]: > 10 µg/mL
pseudovirus neutralization IC50 [10]: > 10 µg/mL
pseudovirus neutralization IC50 [11]: > 10 µg/mL

B5: BD56-780 (protein)
chain 1: QITLKESGPTLVNPTQTLTLTCTFSGISLSASGVNVGWIRQPPGKALEWLAFISWDGDKRYSPSLKSRLTITTDTSKNQVVLTMTNLDSVDTATYYCAHSFAYYSELGSLDYWGQGTLVTVSS
chain 2: QSVLTQPPSVSGAPGQRVTISCTGSSSNIGAGYDVHWYQQLPGTAPKLLIFDSRNRPSGVPGRFSGSKSGTSASLAITGLQAEDEATYYCQSYDSSLTAVVFGGGTKLTVL
pseudovirus neutralization IC50 [1]: 0.0107 µg/mL
pseudovirus neutralization IC50 [2]: > 10 µg/mL
pseudovirus neutralization IC50 [3]: > 10 µg/mL
pseudovirus neutralization IC50 [4]: > 10 µg/mL
pseudovirus neutralization IC50 [5]: > 10 µg/mL
pseudovirus neutralization IC50 [6]: > 10 µg/mL
pseudovirus neutralization IC50 [7]: > 10 µg/mL
pseudovirus neutralization IC50 [8]: > 10 µg/mL
pseudovirus neutralization IC50 [9]: > 10 µg/mL
pseudovirus neutralization IC50 [10]: > 10 µg/mL
pseudovirus neutralization IC50 [11]: > 10 µg/mL

B6: BD56-862 (protein)
chain 1: EVQLLESGGGLVQPGGSLRLSCTASGFTFSSYAMSWVRQAPGKGLEWVSVIYGGGSSTYYVDSVKGRFTISRDNSKNTLYLQMSSLRAEDTAVYYCAIEWEPLGHYYYYMDVWGKGTTVTVSS
chain 2: QSVLTQPPSVSGAPGQRVTISCTGSSSNIGAGYDLHWYQQLPGTAPKLLIYGNSNRPSGVPDRFSGSKSGTSASLAITGLQAEDEADYYCQSYDSSLSGWVFGGGTKLTVL
pseudovirus neutralization IC50 [1]: 0.047 µg/mL
pseudovirus neutralization IC50 [2]: > 10 µg/mL
pseudovirus neutralization IC50 [3]: > 10 µg/mL
pseudovirus neutralization IC50 [4]: > 10 µg/mL
pseudovirus neutralization IC50 [5]: > 10 µg/mL
pseudovirus neutralization IC50 [6]: > 10 µg/mL
pseudovirus neutralization IC50 [7]: > 10 µg/mL
pseudovirus neutralization IC50 [8]: > 10 µg/mL
pseudovirus neutralization IC50 [9]: > 10 µg/mL
pseudovirus neutralization IC50 [10]: > 10 µg/mL
pseudovirus neutralization IC50 [11]: > 10 µg/mL

B7: BD56-788 (protein)
chain 1: QVQLQESGPGLVKPSETLSLTCTVSGGSISDHYWSWIRQPAGKGLEWIGRIYTSGSTNCNPSLKSRVTMSVDTSKNQFSLKLSSVTAADTAVYFCVRDQGVPGLYFSDDRYFDWLHYDANWFDPWGQGTLVTVSS
chain 2: QSVLTQPPSVSGAPGQRVTISCTGSSSNIGAGYDVHWYQQLPGTAPKLLIYGNNNRPSGVPDQFSGSKSGTSASLAITGLQAEDEADYYCQSYDSSLSGYVFGTGTKVTVL
pseudovirus neutralization IC50 [1]: 0.000991 µg/mL
pseudovirus neutralization IC50 [2]: 0.000596 µg/mL
pseudovirus neutralization IC50 [3]: > 10 µg/mL
pseudovirus neutralization IC50 [4]: > 10 µg/mL
pseudovirus neutralization IC50 [5]: > 10 µg/mL
pseudovirus neutralization IC50 [6]: > 10 µg/mL
pseudovirus neutralization IC50 [7]: > 10 µg/mL
pseudovirus neutralization IC50 [8]: > 10 µg/mL
pseudovirus neutralization IC50 [9]: > 10 µg/mL
pseudovirus neutralization IC50 [10]: > 10 µg/mL
pseudovirus neutralization IC50 [11]: > 10 µg/mL

B8: BD56-762 (protein)
chain 1: EVQLVESGGGLVQPGRSLRLSCAASGFTFDDYAMHWVRQAPGKGLEWVSGISWNSGSIGYADSVKGRFTISRDNARNSLYLQMNSLRAEDTALYYCAKDLTDGYNSGDWYFHYWGQGTLVTVAS
chain 2: QSALTQPASVSGSPGQSITISCTGTSSDVGGFNYVSWYQQHPGKAPKLMIYDVSKRPSGVSDRFSGSKSGNTASLTISGLQPEDEADYYCTSYTSSSTVVFGGGTKLTVL
pseudovirus neutralization IC50 [1]: 0.0577 µg/mL
pseudovirus neutralization IC50 [2]: > 10 µg/mL
pseudovirus neutralization IC50 [3]: > 10 µg/mL
pseudovirus neutralization IC50 [4]: > 10 µg/mL
pseudovirus neutralization IC50 [5]: > 10 µg/mL
pseudovirus neutralization IC50 [6]: > 10 µg/mL
pseudovirus neutralization IC50 [7]: > 10 µg/mL
pseudovirus neutralization IC50 [8]: > 10 µg/mL
pseudovirus neutralization IC50 [9]: > 10 µg/mL
pseudovirus neutralization IC50 [10]: > 10 µg/mL
pseudovirus neutralization IC50 [11]: > 10 µg/mL

B9: BD56-794 (protein)
chain 1: EVQLVQSGAEVKKPGESLKISCKDSGYSFTSYWIGWVRQMPGKGLEWMGIIYPGDSDTRYSPSFQGQVTISADKSISTAYLQWSSLKASDTAMYYCAISDGYNSFFLWYWGQGTLVTVSS
chain 2: EIVMTQSPATLSVSPGERATLSCRASQSVSSNLAWYQQKPGQAPRLLIYGASTRATDIPARFSGSGSGTEFTLTISSLQSEDFAVYYCQQYNNWPPTFGQGTKLEIK
pseudovirus neutralization IC50 [1]: 0.000207 µg/mL
pseudovirus neutralization IC50 [2]: 0.000581 µg/mL
pseudovirus neutralization IC50 [3]: 0.000381 µg/mL
pseudovirus neutralization IC50 [4]: 0.00128 µg/mL
pseudovirus neutralization IC50 [5]: 0.000989 µg/mL
pseudovirus neutralization IC50 [6]: 0.00146 µg/mL
pseudovirus neutralization IC50 [7]: 0.00298 µg/mL
pseudovirus neutralization IC50 [8]: 0.000864 µg/mL
pseudovirus neutralization IC50 [9]: 0.00112 µg/mL
pseudovirus neutralization IC50 [10]: > 10 µg/mL
pseudovirus neutralization IC50 [11]: > 10 µg/mL

B10: BD56-756 (protein)
chain 1: QVTLRESGPALVKPTQTLTLTCTFSGFSLSTSGMCVSWIRQPPGKALEWLALIGWDDDKYYTTSLKTRLTISKDTSKNQVVLTMTNMDPVDTATYYCARIHGDNSEYAFDIWGQGTMVTVSS
chain 2: SYELTQPPSVSVSPGQTARITCSGDALPIQYSYWYRQKPGQAPVLVIYKDSERPSGIPERFSGSNSGTTVTLTISGVQAEDEADYYCQSADSSGTYPWVFGGGTKLTVL
pseudovirus neutralization IC50 [1]: 0.00676 µg/mL
pseudovirus neutralization IC50 [2]: 0.106 µg/mL
pseudovirus neutralization IC50 [3]: 0.038 µg/mL
pseudovirus neutralization IC50 [4]: 0.169 µg/mL
pseudovirus neutralization IC50 [5]: 0.233 µg/mL
pseudovirus neutralization IC50 [6]: 0.18 µg/mL
pseudovirus neutralization IC50 [7]: 2.86 µg/mL
pseudovirus neutralization IC50 [8]: 0.188 µg/mL
pseudovirus neutralization IC50 [9]: 0.173 µg/mL
pseudovirus neutralization IC50 [10]: > 10 µg/mL
pseudovirus neutralization IC50 [11]: > 10 µg/mL
